# Reference: PubChem BioAssay AID1259414 (Drosophila RNAi Screening Center, 2018)
# Purpose: 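Fly genes that alter Wolbachia amount inside host cells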 (primary screen)
# Cells: Drosophila JW18 cells infected with Wolbachia
# Knock-down reagent: long dsRNA against Drosophila genes, 0.25 µg dsRNA per well of a 384-well plate
# Time to read-out: 5 days
# Challenge: cells persistently infected with Wolbachia before knock-down; no added drug
# Measurement: 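Automated imaging of bacterial rRNA staining divided by host cell count, reported as plate-normalised robust z-score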
# Direction: Wolbachia per cell robust z: higher = more Wolbachia per host cell than the plate typical
# Hit rule: 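Hit when robust z is 1.5 or more, or -1.5 or less, in at least two of three replicates; excludes dsRNAs with several or no targets, genes not expressed in JW18 and well A1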
# The screen tested about 24,000 reagents; this is a random part of those that have a named target and a result. Over the whole deposit, about 1,210 (5%) are marked active. 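Inactive calls also include excluded dsRNAs with several or no targets, genes unexpressed in JW18, and well A1, regardless of score.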 The numbers tell different reagents against one gene apart. A plus sign joins genes that one reagent is predicted to hit.
gene knocked down,reagent,"Wolbachia per cell robust z, rep 1","Wolbachia per cell robust z, rep 2","Wolbachia per cell robust z, rep 3",call
CG10211,1,0.83,0.609,1.12,inactive
CG10211,2,-0.322,0.241,-0.835,inactive
CG3216,1,1.9,0.955,1.86,active
CG3216,2,-0.468,-0.633,0.0854,inactive
CG12780,1,-0.887,0.23,-0.222,inactive
Irc,1,-0.0789,0.548,1.09,inactive
Irc,2,-0.352,0.0956,-1.09,inactive
CG6195,1,0.721,0.571,-0.127,inactive
CG6195,2,-2.24,-0.978,0.0369,inactive
gnu,1,-0.207,-0.559,0.398,inactive
Xpac,1,-0.985,-0.733,-1.16,inactive
Xpac,2,-0.0757,-0.71,0.321,inactive
CG3556,1,0.0656,0.737,-0.916,inactive
CG3556,2,-2.17,-0.389,-5.98,active
MED25,1,-2.2,-0.297,-1.18,inactive
MED25,2,-0.524,-1.13,-0.232,inactive
Lhr,1,-0.125,-1.08,-2.3,inactive
Lhr,2,-0.149,-1.23,-0.955,inactive
Sodq,1,0.761,-1.83,-1.58,inactive
Sodq,2,0.152,-0.389,-0.798,inactive
T48,1,0.184,0.329,1.09,inactive
CG13658,1,1.11,0.67,0.459,inactive
CG13658,2,0.466,-0.249,-0.252,inactive
mad2,1,1.72,1.57,0.272,active
dor,1,-0.661,-0.963,-0.684,inactive
dor,2,0.0414,0.912,-0.355,inactive
Act87E,1,0.558,0.513,-0.354,inactive
Act87E,2,0.0687,0.351,-0.375,inactive
CG17994,1,-0.675,-1.84,0.322,inactive
Vps8,1,0.432,-0.0297,0.231,inactive
Orct,1,1.03,0.772,-1.31,inactive
Orct,2,1.08,1.56,0.176,inactive
CG15036,1,-0.396,0.353,-4.18,inactive
CG15036,2,0.164,0.0971,-0.459,inactive
CG8119 + asRNA:CR43299,1,0.566,0.11,-0.392,inactive
Mcm6,1,-0.359,-0.541,0.26,inactive
Mcm6,2,-0.914,0.00855,0.153,inactive
Vps50,1,-0.654,-0.435,-0.199,inactive
alpha-Spec,1,-0.127,-1.03,-1.21,inactive
alpha-Spec,2,-2.03,-1.16,-1.65,active
CG17197,1,0.864,1.54,-1.27,inactive
CG2004,1,0.425,-5.46,0.958,inactive
CG31087,1,-4.3,-1.68,-1.95,inactive
wal,1,-0.454,0.531,-0.404,inactive
wal,2,1.7,1.37,0.332,inactive
TM9SF3,1,1.04,0.577,0.941,inactive
CG6763,1,-4.38,0.104,0.585,inactive
CG6763,2,1.79,0.658,-0.351,inactive
gek,1,-1.59,-0.0546,-1.15,inactive
CG3408,1,-0.878,0.144,-0.552,inactive
CG11370,1,-0.00289,0.548,-0.702,inactive
CG11370,2,-1.8,-1.76,-4.44,inactive
CG13887,1,0.556,-0.308,0.426,inactive
kuk,1,1.05,1.07,2.21,inactive
kuk,2,2.05,-0.712,-0.0807,inactive
cGlr1,1,-0.228,0.478,-2.59,inactive
BBS5,1,0.13,-2.06,0.51,inactive
BBS5,2,-1.03,0.00417,0.825,inactive
CG30413,1,-0.339,0.132,-0.559,inactive
CG30413,2,-0.98,1.12,-4.12,inactive
CG17612,1,0.922,0.128,0.00401,inactive
CG17612,2,1.3,0.765,0.286,inactive
CG13690,1,-4.7,0.39,0.0185,inactive
CG33643,1,0.698,-0.66,-0.487,inactive
Bub1,1,0.408,-0.887,-0.309,inactive
Bub1,2,-0.00315,-0.597,0.77,inactive
CG5070,1,-0.308,0.18,-0.485,inactive
CG5070,2,1.03,1.59,2.04,inactive

Entries above whose gene name begins with K or k:
gene knocked down,reagent,"Wolbachia per cell robust z, rep 1","Wolbachia per cell robust z, rep 2","Wolbachia per cell robust z, rep 3",call
kuk,1,1.05,1.07,2.21,inactive
kuk,2,2.05,-0.712,-0.0807,inactive
